# Assay results from patent publication US5380646A, “Thrombus detection using radiolabelled disintegrins” (Temple University of the Commonwealth System of Higher …, priority 1992, dated 1995).
# Test system: femoral clot
# Assay: Comparison of short Arg-Gly-Asp peptides to disintegrins in dog, femoral clot (Example 7)
# Format: in vivo
# Method: In this example of thrombi and emboli in a dog, the radioactivity target:background ratios were determined qualitatively by imaging and quantitatively by tissue sampling. Higher ratios are due to the increased target specificity of the radiolabel carrier. Significant measurements presented in this study are the relative ratio of counts from the target tissue (thrombus and pulmonary emboli) to background entities (muscle, vessels blood etc.). […] Thrombus uptake data, such as the percent injected radiolabel dose per gram of thrombus (% id/g thrombus), thrombus-to-blood (=100×% id/g thrombus.div.%id/g blood) and thrombus-to-muscle ratios (=100×%id/g thrombus.div.%id/g muscle) were calculated from the tissue sample count data discussed below.
# A female mongrel dog weighing 40 lbs was fasted overnight. The dog was sedated with an intramuscular injection of a mixture of ketamine hydrochloride and acepromazine maleate. General anesthesia was induced with intravenous pentobarbital (20 mg/kg). After shaving and washing the dog's skin, a 3-cm incision was made in the right groin area. Using blunt dissection, a segment of the femoral vein was located and freed from surrounding tissue for a length of 1 inch. An 18-guage angiocath was inserted into the vein, and floppy-tip guide wire was advanced through the angiocath into the vein and advanced to mid-femur (approximately 3 inches). The angiocath was replaced with a longer catheter which extended over the guidewire to mid-thigh. The guidewire was then withdrawn and an embolization coil, consisting of a stainless steel spring enmeshed with Dacron fibers and capable of expanding to a diameter of 8 mm (Cook, Bloomington, Ind.) was introduced into the catheter. The coil was advanced with the guidewire until it emerged from the distal end of the catheter, where it promptly expanded and lodged firmly in the vessel. The catheter and guide wire were withdrawn. The incision was closed with 2-0 silk. This produced a model of deep venous thrombosis.
# Twenty-four hours after placement of the coils, anesthesia was induced as before. The urinary bladder was catheterized to collect urine. A large field of view gamma camera (General Electric, Milwaukee, Wis.) was positioned over the dog for an anterior view of the chest. The camera was fitted with a low-energy all-purpose collimator and was set to acquire the 159 keV photopeak of ^123 I with a 20% window. A Macintosh IIx computer was interfaced to the camera using a NucLear Mac A/D board and software (Scientific Imaging, Denver, Colo.). The following radiotracers were injected into a right foreleg vein: 31 μCi of ^125 I-fibrinogen (358 μg), followed by a saline flush and an injection of 4.4 mCi of ^123 I-Bitistatin (90 μg). The ^125 -fibrinogen served as a control, since it has been studied previously in this dog model.
# At 2 hours and 45 min. post injection, deep anesthesia was induced by intravenous administration of 30 mg/kg pentobarbital. A blood sample was drawn and 0.3 cc was transferred into each of two pre-weighed tubes. The animal was euthanized with intracardiac injection of KCl saturated solution. The vein segment containing the thrombus was carefully removed and dissected to separate the thrombus, coil, Dacron fibers and vessel wall. Each of these samples was placed on tared paper and weighed (wet weight). […] Each sample was then placed in a counting tube and counted along with a saved aliquot of the injected dose as a standard, in a well counter. […]
substance,measurement,setting,value
"^123 I-albolabrin: albolabrin, disintegrin from Trimeresurus albolabris, radioiodinated with ^123 I",AV:CV abnormal (injured) vessel:control vessel label ratio,"FC, 4 hrs",1.3
same,Percent Injected Dose Per Gram of Thrombus,"FC, 4 hrs",0.0714 % id/g
same,T:B thrombus:blood ratio,"FC, 4 hrs",9.9
same,T:M thrombus:muscle ratio,"FC, 4 hrs",42.5
same,target:background ratios versus medically acceptable range for imaging,"T:B at least 4:1 in extremities, 9:1 in chest",medically significant background ratios for imaging of thrombi
